Measured values from several laboratories, pooled; numbers as filed in NIAID ChemDB.

Shared fields: tests in culture; organism: Influenza A virus; read-out: EC50

An empty or dashed field is not shown. ECn is the concentration giving n% inhibition of infection, replication or growth. Lines come from different laboratories, so protocols vary.

smiles | strain | cell line | value
CC(N)C12CC3CC(CC(C3)C1)C2 | H7N1 A/Rostock/34 | Chick embryo fibroblasts | 0.012 µg/mL
CCC(CC)[C@H](NC(C)=O)[C@@H]1C[C@@H](C(=O)O)C[C@H]1N=C(N)N | H5N1 A/duck/MN/1525/81 | MDCK | 0.022 µM
CC(=O)N[C@H]1[C@H]([C@H](O)[C@H](O)CO)OC(C(=O)O)=C[C@@H]1N=C(N)N | H5N8 A/DK/IRE/83 | MDCK | 0.0033 µM
CCCN(CCc1ccc(O)cc1)C(=O)[C@@H]1OC(C(=O)O)=C[C@H](N)[C@H]1NC(C)=O | A/Singapore/1/57 |  | 0.0001 µg/mL
C#C[C@@H](O)C1=C[C@@H](n2cnc3c(N)ncnc32)[C@H](O)[C@@H]1O | H2N2 JAPAN 57 | MDCK | >50 µg/mL
CCCN(CCc1ccccc1OC)C(=O)[C@@H]1OC(C(=O)O)=C[C@H](N)[C@H]1NC(C)=O | A/Singapore/1/57 |  | 0.00004 µg/mL
Nc1nc2c(ncn2[C@@H]2O[C@H](CO)[C@@H](O)[C@H]2F)c(=O)[nH]1 | H2N2 A/Singapore/1/57 | CEF | 0.4 µM
CC(N)C12CC3CC(CC(C3)C1)C2 | A/Rostock | CEF | <0.1 µM
CCCN(CCc1ccc(Cl)cc1Cl)C(=O)[C@@H]1OC(C(=O)O)=C[C@H](N)[C@H]1NC(C)=O | A/Singapore/1/57 |  | 0.00001 µg/mL
[N-]=C=Nc1nncs1 | H7N7 A/Gendon | MDCK | <10 µg/mL
CCC(=O)C(CCCCCCc1ccc(O)cc1)C(=O)CC | A2 JAP 170 |  | <100 µg/mL
C/C=C\[C@@H]1C[C@H](C(=O)O)N[C@H]1[C@@H](NC(C)=O)[C@](C)(CCC)OC | A/N9 (WILD TYPE) | MDCK | 0.002 µM
CCCN(CCc1ccc(OC)cc1)C(=O)[C@@H]1OC(C(=O)O)=C[C@H](N)[C@H]1NC(C)=O | A/Singapore/1/57 |  | 0.003 µg/mL
N#CNc1nncs1 | A/ANN ARBOR/1/57 | MDCK | 0.73 µg/mL
CC(=O)N[C@@H]1[C@@H](N)C=C(C(=O)O)O[C@H]1C(=O)N(CCN=[N+]=[N-])CCc1ccccc1 | A/Singapore/1/57 |  | 0.001 µg/mL
CCC(=O)C(CCCCCCOc1ccc(OC)cc1Cl)C(=O)CC | A2 JAP 170 |  | <200 µg/mL
CCCN(CCc1cccc(-c2ccccc2)c1)C(=O)[C@@H]1OC(C(=O)O)=C[C@H](N)[C@H]1NC(C)=O | A/Singapore/1/57 |  | 0.0003 µg/mL
C1CCN(CCN2CCC(C3C4CC5CC(C4)CC3C5)C2)CC1 | H2N2 A2 JAPAN/305/57 | MDCK | 0.7 µM
CCC(CC)[C@H](NC(C)=O)[C@@H]1[C@H](O)[C@@H](C(=O)O)C[C@H]1N=C(N)N | H5N1 A/duck/MN/1525/81 | MDCK | 0.01 µM
C1Cc2noc(C34CC5CC(CC(C5)C3)C4)c2C1 | H7N1 A/Rostock/34 | Chick embryo fibroblasts | 145 µg/mL
C#C[C@H](O)C1=C[C@@H](n2cnc3c(N)ncnc32)[C@H](O)[C@@H]1O | H2N2 X31 | MDCK | >50 µg/mL
C/C=C\[C@@H]1C[C@H](C(=O)O)N[C@H]1[C@@H](NC(C)=O)[C@](C)(CCC)OC | H3N2 TOKYO/3/67 | MDCK | 0.0059 µM
CCOC(=O)C1=C[C@@H](OC(CC)CC)[C@H](NC(C)=O)[C@@H](N)C1 | H5N1 A/Vietnam/1194/04 | MDCK | 22.35 µM

Repeating the final 2 entries:

| smiles | strain | cell line | value |
|---|---|---|---|
| C/C=C\[C@@H]1C[C@H](C(=O)O)N[C@H]1[C@@H](NC(C)=O)[C@](C)(CCC)OC | H3N2 TOKYO/3/67 | MDCK | 0.0059 µM |
| CCOC(=O)C1=C[C@@H](OC(CC)CC)[C@H](NC(C)=O)[C@@H](N)C1 | H5N1 A/Vietnam/1194/04 | MDCK | 22.35 µM |